Values joined by “and” are separate entries in the source; they are usually repeats but may differ in a detail not shown here. Identical values can stand only once.
Molecular target: SNAP-25 cleavage product in lysate of Neuro-2a cells treated with re-targeted endopeptidase (mouse (Neuro-2a cells)) (UniProt P60879)

Substance	Signal/Noise Ratio (10 nM/0 nM)
N-19 α-SNAP-25 goat polyclonal antibodies (Santa Cruz Biotechnology)	0.9 and 1.1
SP12 α-SNAP-25 mouse polyclonal antibodies (Santa Cruz Biotechnology)	1
C-18 α-SNAP-25 goat polyclonal antibodies (Santa Cruz Biotechnology)	0.8 and 0.9
MC-6050 mouse α-SNAP-25 monoclonal antibody (Research & Diagnostic Antibodies)	5
H-50 α-SNAP-25 rabbit polyclonal antibodies (Santa Cruz Biotechnology)	0.9 and 1
SMI-81 mouse α-SNAP-25 monoclonal antibody (Sternberger Monoclonals)	1.1 and 1 and 0.8
MC-6053 mouse α-SNAP-25 monoclonal antibody (Research & Diagnostic Antibodies)	7.1
